Results reported in publication PMC8787478.
For at least one entry, the source does not settle the construct or the ends of the probe.

Tests used:
[1] = molecular target: T1, Vfr (Pseudomonas aeruginosa) (UniProt P55222); test: EMSA; conditions: cAMP-saturated, 2.25-68 nM, no apparent change vs WT; EMSA: 10 mM Tris pH 7.5, 50 mM KCl, 1 mM EDTA, 1 mM DTT, 5% glycerol, 100 ug/mL BSA, 5 ug/mL poly(dI-dC), 0.25 nM probe, 25 C; recombinant protein; label: 32P end label; probe letters rebuilt from the primers and the genome
T1 sequence: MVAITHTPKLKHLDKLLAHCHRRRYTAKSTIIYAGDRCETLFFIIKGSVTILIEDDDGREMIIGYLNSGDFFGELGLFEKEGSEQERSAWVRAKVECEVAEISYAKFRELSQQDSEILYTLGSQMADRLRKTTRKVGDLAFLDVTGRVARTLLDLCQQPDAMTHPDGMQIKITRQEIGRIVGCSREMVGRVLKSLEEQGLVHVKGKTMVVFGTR

[2] = molecular target: T1, Vfr (Pseudomonas aeruginosa); test: DNase I footprinting; conditions: cAMP-Vfr 1-114 nM, hypersensitive at -127 and -117; 5' amino modifier C6 on one primer; footprinting: 10 mM Tris pH 8.0, 50 mM KCl, 2 mM MgCl2, 0.5 mM DTT, 10% glycerol, 100 ug/mL BSA, 5 ug/mL poly(dI-dC), 25 C; recombinant protein; label: 32P, top strand single end label; probe letters rebuilt from the primers and the genome

| Sequence | binding result [1] | binding result [2] |
| --- | --- | --- |
| GCATACCGTTGCCTGGCAACTGATCCTCAACCGGCAGGGCCGGCTCCGTACCGCGAGCGCCAGGGAGAACCGGGAGAAACGTGAGATATGCATCACTTCCGGATGATCATGGACCAGTTGTCCTGCCCCTCGGGCCGACCGTCAACGACCGCAAGACGCTCCCAGGCCCGTTTGGCATGCTTTCCAGGCGTAGAC (double strand) [PfimU M1] | binds | – |
| GCATACCGTTGCCTGGCAACTGATCCTCAACCGGCAGGGCCGGCTCCGTACCGCGAGCGCCAGGGAGAACCGGGAGAAACGTGAGCTATGCAGCACTTCCGGATGATCATGGACCAGTTGTCCTGCCCCTCGGGCCGACCGTCAACGACCGCAAGACGCTCCCAGGCCCGTTTGGCATGCTTTCCAGGCGTAGAC (double strand) [PfimU footprinting probe] | – | binds |
